Measured values from several laboratories, pooled; numbers as filed in NIAID ChemDB.

Shared fields: whole-cell or culture tests

Conditions beyond the fields shown may differ between rows.

O=C1CCCN2C(CC1)C[C@@]13CN4CCCC/C=C/CC[C@@](O)(C=C(c5nccc6c5[nH]c5c(O)cccc56)[C@H]1CC4)[C@@H]23 ; measure: inhibition ; dose: 10 µM ; cell line: HFF ; agent: Toxoplasma gondii ; value: 37%
Nc1ncnc2c1ncn2C[C@@H](CO)OCP(=O)(O)O ; measure: inhibition ; dose: 10 µM ; cell line: P3HR-1 ; agent: Epstein-Barr virus ; value: 5%
COc1cc([C@@H]2c3cc4c(cc3[C@@H](O[C@@H]3O[C@@H]5CO[C@@H](C)O[C@H]5[C@H](O)[C@H]3O)[C@H]3COC(=O)[C@H]23)OCO4)cc(OC)c1O ; measure: inhibition ; dose: 1 µg/mL ; conditions: 7 d ; agent: Pneumocystis carinii ; value: 42%
NC(=O)c1[nH]nc([C@@H]2O[C@H](CO)[C@@H](O)[C@H]2O)c1O ; method: cytopathic effect ; measure: EC50 ; cell line: HeLa ; strain: 58-14 ; agent: Respiratory syncytial virus ; value: 0.1 µg/mL
CC(=O)N[C@@H](CC(C)C)C(=O)N[C@@H](CC(C)C)C(=O)N[C@H](C=O)CCCN=C(N)N ; measure: inhibition ; dose: 10 µg/mL ; agent: Cryptosporidium parvum ; value: 35.2%
O=C(Nc1ccc(C(F)(F)F)cc1)c1cc(Cl)ccc1OP(=O)(Oc1ccccc1)Oc1ccccc1 ; measure: MIC ; conditions: 14 d ; strain: My 6509/96 ; agent: Mycobacterium kansasii ; value: 4 µM
Nc1nccc2c1ncn2[C@@H]1C[C@H](CO)[C@@H](O)[C@H]1O ; method: cytopathic effect ; measure: EC50 ; cell line: PRK ; agent: Vesicular stomatitis virus ; value: 0.2 µg/mL
O[C@H]1[C@H](O)[C@@H](O)CN2CC[C@H](O)[C@H]12 ; method: plaque count ; measure: EC50 ; cell line: MDBK ; agent: Bovine viral diarrhea virus ; value: 110.2 µM
Clc1ccc([Se][Se]c2ccc(Cl)cc2)cc1 ; method: broth dilution ; measure: MFC ; agent: Candida dubliniensis ; value: >64 µg/mL
CC(C)(C)NC(=O)[C@@H]1C[C@@H]2CCCC[C@@H]2CN1C[C@@H](O)[C@H](Cc1ccccc1)NC(=O)[C@H](CC(N)=O)NC(=O)c1ccc2ccccc2n1 ; method: p24 ; measure: EC95 ; cell line: MT-4 ; strain: NL4-3 ; agent: HIV-1 ; changes: PR-L10R L63P V82T ; value: 0.025 µM
O=C(Nc1ccc(Cl)c(Cl)c1)c1cc(Cl)ccc1OP(=O)(Oc1ccccc1)Oc1ccccc1 ; measure: MIC ; conditions: 21 d ; strain: My 6509/96 ; agent: Mycobacterium kansasii ; value: 8 µM
NC(=O)c1ncn([C@@H]2O[C@H](CO)[C@@H](O)[C@H]2O)n1 ; method: cytopathic effect ; measure: EC50 ; cell line: MDBK ; agent: Bovine viral diarrhea virus ; value: 63 µM
Cc1cn([C@@H]2C[C@@H](O)[C@H](CO)O2)c(=O)[nH]c1=O ; measure: EC50 ; cell line: MA-104 ; strain: TYPE 3 ; agent: Parainfluenza virus ; value: >100 µM
O=C(Nc1ccccc1)c1ccccc1OP(=O)(OCc1ccccc1)OCc1ccccc1 ; measure: MIC ; conditions: 14 d ; strain: My 235/80 ; agent: Mycobacterium kansasii ; value: 500 µM
C#Cc1c(C(N)=O)ncn1[C@@H]1O[C@H](CO)[C@@H](O)[C@H]1O ; method: plaque count ; measure: EC50 ; cell line: VERO ; strain: ECXH-3 ; agent: Mumps virus ; value: 1.9 µg/mL
Nc1ncnc2c1ncn2[C@@H]1C[C@@H](O)[C@H](CO)O1 ; measure: EC50 ; cell line: PDH ; agent: Duck hepatitis B virus ; value: 0.15 µM
c1ccc([Se][Se]c2ccccc2)cc1 ; method: broth dilution ; measure: MIC ; strain: CBS 7987 ; agent: Candida dubliniensis ; value: 8 µg/mL
Nc1nccc2c1ncn2[C@@H]1C=C(CO)[C@@H](O)[C@H]1O ; method: virus yield ; measure: EC90 ; cell line: MA-104 ; agent: Rotavirus A ; value: 0.04 µg/mL
C[C@H]1COc2c(N3CCN(C)CC3)c(F)cc3c(=O)c(C(=O)O)cn1c23 ; measure: MIC ; strain: Clinical isolate SP30 ; agent: Streptococcus pneumoniae ; value: 1 µg/mL
O=C(Nc1ccccc1)c1ccccc1OP(=O)(Oc1ccccc1)Oc1ccccc1 ; measure: MIC ; conditions: 21 d ; strain: My 6509/96 ; agent: Mycobacterium kansasii ; value: 250 µM
CCCCCCCCCCN1[C@H](CN)[C@@H](O)[C@H](O)[C@H]1CO ; measure: EC50 ; agent: Dengue virus ; value: >50 µM
O[C@]12C=C(c3nccc4c3[nH]c3ccccc34)[C@@H]3CCN(CCCC/C=C/CC1)C[C@@]31C[C@@H]3/C=C\CCCCN3C12 ; measure: inhibition ; dose: 0.1 µM ; cell line: HFF ; agent: Toxoplasma gondii ; value: 70%
Nc1ncnc2c1ccn2[C@@H]1O[C@H](CO)[C@@H](O)[C@H]1O ; method: cytopathic effect ; measure: EC50 ; cell line: HeLa ; strain: S-8 ; agent: Respiratory syncytial virus ; value: 1 µg/mL
NC12CC3CC(CC(C3)C1)C2 ; measure: MIC ; strain: B/University of Maryland/1/71 ; agent: Influenza B virus ; value: >25 µg/mL
Nc1ccn([C@@H]2C[C@@H](O)[C@H](CO)O2)c(=O)n1 ; measure: EC50 ; cell line: MA-104 ; strain: TYPE 3 ; agent: Parainfluenza virus ; value: >100 µM
CO/N=C1\CN(c2nc3c(cc2F)c(=O)c(C(=O)O)cn3C2CC2)CC1CN ; measure: MIC ; strain: 305313 ; agent: Streptococcus pneumoniae ; value: 0.125 µg/mL
O=C(Nc1ccc(Br)cc1)c1cc(Cl)ccc1OP(=O)(Oc1ccccc1)c1ccccc1 ; measure: MIC ; conditions: 14 d ; strain: My 6509/96 ; agent: Mycobacterium kansasii ; value: 8 µM
O=c1[nH]c(=O)n([C@H]2C[C@H](O)[C@@H](CO)O2)cc1/C=C/Br ; measure: inhibition ; dose: 1 µM ; cell line: P3HR-1 ; agent: Epstein-Barr virus ; value: 6%
O=C(Nc1ccc(Cl)cc1)c1cc(Cl)ccc1OP(=O)(c1ccccc1)c1ccccc1 ; measure: MIC ; conditions: 21 d ; strain: My 235/80 ; agent: Mycobacterium kansasii ; value: 8 µM
C#CC[C@@H](C(=O)N[C@H](/C=C/C(=O)OCC)C[C@@H]1CCNC1=O)n1cccc(NC(=O)c2cc(C)on2)c1=O ; method: cytopathic effect / XTT ; measure: EC50 ; cell line: H1-HELA ; strain: Serotype 16 ; agent: Rhinovirus ; value: 0.038 µM
Nc1cc2[nH]cnc2c(=O)[nH]1 ; method: cytopathic effect ; measure: EC50 ; cell line: HeLa ; strain: 58-7 ; agent: Respiratory syncytial virus ; value: 0.89 µg/mL
O=C(Nc1ccccc1)c1ccccc1OP(=O)(c1ccccc1)c1ccccc1 ; measure: MIC ; conditions: 7 d ; strain: My 6509/96 ; agent: Mycobacterium kansasii ; value: 250 µM
O=S(=O)(F)Cc1ccccc1 ; method: cell count / microscopy ; measure: inhibition ; dose: 2000 µM ; agent: Cryptosporidium parvum ; value: 44.1%
Nc1ccc(S(=O)(=O)Nc2ncccn2)cc1 ; measure: inhibition ; dose: 2 µg/mL ; agent: Toxoplasma gondii ; value: 55%
CC(C)CN(C[C@@H](O)[C@H](Cc1ccccc1)NC(=O)[C@H](CC(N)=O)NC(=O)c1ccc2ccccc2n1)C(=O)NC(C)(C)C ; method: p24 ; measure: EC95 ; cell line: MT-4 ; strain: NL4-3 ; agent: HIV-1 ; changes: PR-M46I V82T ; value: 0.4 µM

A second listing of 4 rows from above:

structure	method	measure	dose	cell line	conditions	strain	agent	changes	value
O=C(Nc1ccc(C(F)(F)F)cc1)c1cc(Cl)ccc1OP(=O)(Oc1ccccc1)Oc1ccccc1		MIC			14 d	My 6509/96	Mycobacterium kansasii		4 µM
CC(C)CN(C[C@@H](O)[C@H](Cc1ccccc1)NC(=O)[C@H](CC(N)=O)NC(=O)c1ccc2ccccc2n1)C(=O)NC(C)(C)C	p24	EC95		MT-4		NL4-3	HIV-1	PR-M46I V82T	0.4 µM
O=S(=O)(F)Cc1ccccc1	cell count / microscopy	inhibition	2000 µM				Cryptosporidium parvum		44.1%
C#CC[C@@H](C(=O)N[C@H](/C=C/C(=O)OCC)C[C@@H]1CCNC1=O)n1cccc(NC(=O)c2cc(C)on2)c1=O	cytopathic effect / XTT	EC50		H1-HELA		Serotype 16	Rhinovirus		0.038 µM

Percent inhibition refers to the dose given; in toxicity tests it is the harm to the cells. An empty or dashed field is not shown. ECn: concentration that inhibits the pathogen or its effect by n%.